Compound potency records, mixed from different reports. Data source: NIAID ChemDB in PubChem.

Common to all: growth or infection tests; agent: HIV-1; cell line: MM + M/M; read-out: EC50

ECn: concentration that inhibits the pathogen or its effect by n%. An empty or dashed field is not shown. Conditions beyond the fields shown may differ between rows.

SMILES | strain or isolate | read by | setting | value
COC(=O)[C@H](C)NP(=O)(OC[C@@H]1C=C[C@H](n2cc(C)c(=O)[nH]c2=O)O1)Oc1ccccc1 | BaL | antigen | - | 0.008 µM
Cc1cn([C@H]2C[C@H](N=[N+]=[N-])[C@@H](CO)O2)c(=O)[nH]c1=O | ADA | p24 | - | 0.01 µM
Cc1cn([C@@H]2O[C@H](CO[Si](C)(C)C(C)(C)C)C3(OS(=O)(=O)C=C3N)[C@H]2O[Si](C)(C)C(C)(C)C)c(=O)n(C)c1=O | BaL | p24 | - | 0.08 µg/mL
Cc1ccnc2c1NC(=O)c1cccnc1N2C1CC1 | ADA | p24 | - | 0.2 µM
Nc1ncnc2c1ncn2[C@H]1C=C[C@@H](CO)O1 | BaL | antigen | - | 5 µM
CC(C)=CCOc1cc(NC(=S)c2ccsc2C)ccc1Cl | - | - | - | 0.015 µg/mL
Nc1ccn([C@H]2CC[C@@H](CO)O2)c(=O)n1 | BaL | antigen | - | 0.003 µM
Cc1ccnc2c1NC(=O)c1cccnc1N2C1CC1 | BaL | cytopathic effect / XTT | clinical isolate | 0.4 µM
Cc1cn([C@H]2C[C@H](N=[N+]=[N-])[C@@H](CO)O2)c(=O)[nH]c1=O | - | - | - | 0.01 µM
CC(C)=CCOc1cc(NC(=S)c2ccoc2C)ccc1Cl | BaL | p24 | - | 0.08 µg/mL
O=c1[nH]cnc2c1ncn2[C@H]1CC[C@@H](CO)O1 | - | - | - | 0.05 µM
Nc1ncnc2c1ncn2[C@H]1CC[C@@H](CO)O1 | BaL | p24 | - | 1 µM
CC(C)(C)C(=O)c1sc(C(=O)NCCc2ccccc2)c(O)c1O | BAL R5 | p24 | - | 0.2 µM
Cc1c(Sc2ccccc2)n(COCCO)c(=O)[nH]c1=O | - | - | - | 0.02 µg/mL
CCc1nc2ccccn2c1C(=O)c1ccco1 | BaL | RT activity | - | 1 µM
Cc1cn([C@H]2C[C@H](N=[N+]=[N-])[C@@H](CO)O2)c(=O)[nH]c1=O | BaL | p24 | - | 0.02 µM
CCCc1cc(=O)oc2c3c(c4c(c12)OC(C)(C)C=C4)O[C@@H](C)[C@H](C)[C@@H]3O | ADA | p24 | - | 0.05 µM
COC(=O)[C@H](C)NP(=O)(OC[C@@H]1CC[C@H](n2cnc3c(N)ncnc32)O1)Oc1ccccc1 | BaL | p24 | - | 0.005 µM
CC(C)=CCN1Cc2cc(Cl)cc3[nH]c(=S)n(c23)C[C@@H]1C | BaL | p24 | - | 0.05 µg/mL
COC(=O)[C@H](C)NP(=O)(OC[C@@H]1O[C@H](n2ccc(N)nc2=O)CS1)Oc1ccccc1 | BaL | antigen | - | 0.032 µM
CCCc1cc(=O)oc2c3c(c4c(c12)OC(C)(C)C=C4)O[C@H](C)[C@@H](C)[C@@H]3O | BaL | p24 | - | 0.05 µM

The last 2 rows once more:

{"SMILES": "COC(=O)[C@H](C)NP(=O)(OC[C@@H]1O[C@H](n2ccc(N)nc2=O)CS1)Oc1ccccc1", "strain or isolate": "BaL", "read by": "antigen", "value": "0.032 µM"}
{"SMILES": "CCCc1cc(=O)oc2c3c(c4c(c12)OC(C)(C)C=C4)O[C@H](C)[C@@H](C)[C@@H]3O", "strain or isolate": "BaL", "read by": "p24", "value": "0.05 µM"}